Source: patent US7964221B2, “Composition and methods of use of an immunomodulator” (priority 2006, dated 2011)

Experiments:
[1] = 32-week three-arm HIV trial: adverse events and laboratory abnormalities; type: in vivo, human
Text: All participants were antiretroviral drug naive.
Laboratory abnormalities were graded.

[2] = 32-week three-arm HIV trial: liver function test (ALT, AST)
[3] = possibly related to treatment, moderate or severe intensity

With “zidovudine (AZT), lamividine (3TC), and efavirenz (EFV) [AZT/3TC/EFV]” the “↑Alanine aminotransferase” value ([1]; laboratory abnormalities) was 6(30%) N(%), the “↑Aspartate aminotransferase” value ([1]; laboratory abnormalities) was 5(25%) N(%) and the “↑Cholesterol” value ([1]; laboratory abnormalities) was 2(10%) N(%). For the same substance, the “↓ Neutrophils” value ([1]; laboratory abnormalities) was 2(10%) N(%), the “↓Haemoglobin” value ([1]; laboratory abnormalities) was 2(10%) N(%) and the “Patients who needed replacement therapy due to progressive fatigue, vomiting and gastrointestinal disorders, and/or hepatotoxicity” value ([1]; over 32 weeks) was 30%. For the same substance, the “Patients who refused further therapy” value ([1]; over 32 weeks) was 5%, the “Patients with serious adverse events possibly or probably related to study medication” value ([1]; over 32 weeks) was 35% and the “Proportion of patients with at least one adverse event possibly and probably related to study medications” value ([1]; over 32 weeks) was 65%. For the same substance, the Abdominal pain [1, 3] was 7(35%) N(%), the Diarrhea [1, 3] was 6(30%) N(%) and the Fatigue [1, 3] was 11(55%) N(%). The Headache [1, 3] was 3(15%) N(%), the Nausea [1, 3] was 7(35%) N(%) and the Vomiting [1, 3] was 2(10%) N(%). For the same substance, the “Median cumulative change from baseline ALT values” (from here on “Median cumulative change”) ([2]; 12 weeks) was “+22 U/L”, the “Mean baseline values of AST” value ([2]; baseline) was 42 U/L and the “Mean baseline values for ALT” value ([2]; baseline (Before)) was 36 U/L. The “Number of patients with ART related hepatotoxicity” value ([2]; over 32 weeks) was 6 (30%) N(%), the “Median cumulative change” value ([2]; week 20) was “+30 U/L” and the “ALT values (AST marker paragraph), mean” value ([2]; week 32) was 68 U/L. The “Median cumulative change” value ([2]; week 32) was “+42 U/L” and the “Mean ALT values at study conclusion” value ([2]; week 32 (After)) was 78 U/L.
